Two sequences from PMC3197488 can be followed below.

In this series the test system is Pae chi-psi complex (DNA polymerase III) (Pseudomonas aeruginosa PAO1). In words: EMSA. Particulars: low salt, Low salt: 5 mM NaCl, 5 mM KPi pH 7.4, 0.87 M glycerol, 0.5 mM DTT, high salt: 0.3 M NaCl, AUC at 20 C, recombinant protein, protein details: GST on psi, cleaved by PreScission. In general terms: A gel shift assay detects complexes by their altered migration in electrophoresis.

The exact form of at least one protein or probe is not confirmed.

As to “GGATACGTAACAACGCTTATGCATCGCCGCCGCTACATCCCTGAGCTGAC (double strand) [50mer dsDNA (A/B)]”, the binding result (somewhat lower affinity than ssDNA, 20 mM KPi pH 7.4, 0.5 mM DTT, label: 5' 6FAM on strand A) is “binds”.

As to “GGATACGTAACAACGCTTATGCATCGCCGCCGCTACATCCCTGAGCTGAC [50mer ssDNA (oligonucleotide A)]”, the binding result (bound more strongly than dsDNA, 20 mM KPi pH 7.4, 0.5 mM …, label: 5' 6FAM, single-stranded DNA) is listed as “binds”.
